Results reported in PubChem BioAssay AID624129 (Sanford-Burnham Center for Chemical Genomics, 2012).
Active and inactive are the calls of the source. No rule for the calls is given here.

Protein sequences, listed by entry. Tags and fused reporters are not part of them.
UniProt Q8VNN2, whole entry, looked up: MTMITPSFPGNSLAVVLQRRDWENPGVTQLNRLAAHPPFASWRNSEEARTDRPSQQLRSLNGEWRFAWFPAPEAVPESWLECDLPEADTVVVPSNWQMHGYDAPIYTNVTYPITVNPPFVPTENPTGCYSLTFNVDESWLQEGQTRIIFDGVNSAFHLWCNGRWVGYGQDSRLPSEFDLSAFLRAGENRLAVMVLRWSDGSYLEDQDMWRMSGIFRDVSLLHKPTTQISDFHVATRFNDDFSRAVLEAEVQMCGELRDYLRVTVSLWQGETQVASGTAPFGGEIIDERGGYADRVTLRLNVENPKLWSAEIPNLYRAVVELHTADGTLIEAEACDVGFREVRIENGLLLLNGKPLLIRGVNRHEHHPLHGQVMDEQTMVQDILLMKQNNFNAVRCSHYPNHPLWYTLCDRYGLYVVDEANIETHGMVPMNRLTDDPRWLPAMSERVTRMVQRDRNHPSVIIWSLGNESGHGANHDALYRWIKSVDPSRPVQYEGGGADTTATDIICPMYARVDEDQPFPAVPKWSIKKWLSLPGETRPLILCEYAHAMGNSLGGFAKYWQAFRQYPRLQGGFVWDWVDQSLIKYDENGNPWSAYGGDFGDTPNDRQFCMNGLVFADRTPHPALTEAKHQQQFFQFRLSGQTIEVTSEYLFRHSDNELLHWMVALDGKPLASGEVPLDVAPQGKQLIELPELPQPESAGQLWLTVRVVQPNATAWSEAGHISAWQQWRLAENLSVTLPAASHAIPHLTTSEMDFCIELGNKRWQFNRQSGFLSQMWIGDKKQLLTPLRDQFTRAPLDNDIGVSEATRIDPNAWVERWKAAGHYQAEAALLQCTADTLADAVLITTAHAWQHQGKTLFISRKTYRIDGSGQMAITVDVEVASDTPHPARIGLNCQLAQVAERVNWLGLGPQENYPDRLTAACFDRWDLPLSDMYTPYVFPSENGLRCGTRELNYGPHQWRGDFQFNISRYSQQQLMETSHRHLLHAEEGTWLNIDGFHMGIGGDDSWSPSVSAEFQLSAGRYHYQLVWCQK

Target: Beta-galactosidase (Escherichia coli) (UniProt Q8VNN2)
Experiment: potency against CXCR6 with APJ panel – cell-based, beta-arrestin, DiscoveRx, uHTS hits, dose response (AID 624129)
Details: CXCR6 beta-arrestin (DiscoveRx) antagonist cell assay, b-galactosidase
[1] = dose range 1, mean IC50 across replicates

SMILES	IC50 (dose range 1)	IC50 [1] [µM]
CN(C)C(=O)c1cc([N+](=O)[O-])cc2c1-c1c(cc([N+](=O)[O-])cc1[N+](=O)[O-])C2=O	inactive: > 80 µM	> 80
C[N+]1=C2C=CC=CC=C2SC12C([N+](=O)[O-])=CC([N+](=O)[O-])=C[C-]2[N+](=O)[O-] (centres undefined)	inactive	51.5
